Reference: PubChem BioAssay AID504636 (National Center for Advancing Translational Sciences (NCATS), 2011)
This is a selection; strong and weak results do not stand in their true shares. Inconclusive results are not listed. Calls of active or inactive are those of the source. Calls come from the whole dose curve.

Sequences of proteins named here, by UniProt entry; tags and fusion partners are left off. A change or cut given only in a name is not applied to a line headed by its entry.
UniProt O15648: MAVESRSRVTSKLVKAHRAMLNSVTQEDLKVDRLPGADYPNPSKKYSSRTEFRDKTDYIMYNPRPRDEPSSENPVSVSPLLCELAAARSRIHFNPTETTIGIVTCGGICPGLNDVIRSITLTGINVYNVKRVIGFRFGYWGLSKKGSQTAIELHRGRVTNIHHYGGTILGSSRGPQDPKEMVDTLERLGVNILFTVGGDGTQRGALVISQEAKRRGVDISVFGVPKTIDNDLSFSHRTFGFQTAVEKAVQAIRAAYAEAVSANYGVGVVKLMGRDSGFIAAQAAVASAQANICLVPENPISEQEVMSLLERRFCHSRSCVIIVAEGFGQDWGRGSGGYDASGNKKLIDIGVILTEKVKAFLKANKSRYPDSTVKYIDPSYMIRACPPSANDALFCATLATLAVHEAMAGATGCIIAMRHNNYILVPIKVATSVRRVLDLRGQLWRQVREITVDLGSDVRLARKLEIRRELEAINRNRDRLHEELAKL

Each compound was assayed against ATP-dependent 6-phosphofructokinase (Trypanosoma brucei brucei) (UniProt O15648) (assay: Tb PFK orthogonal confirmatory assay using ATP depletion (Kinase-Glo Plus) as an alternative measure of Tb PFK activity: Hit Validation). Settings: Tb PFK enzyme, Kinase-Glo Plus luminescence.
Text: Various species of the protozoan family Trypanosomatidae are responsible for a range of serious human diseases in tropical and subtropical areas of the world. […] Many of the disorders caused by trypanosomatids are fatal if left untreated, but most currently used drugs are inefficient and toxic.
Oxidative metabolism involving the mitochondrial tricarboxylic acid cycle and oxidative phosphorylation are repressed in these parasites, and recent RNA interference (RNAi) experiments have shown that even partial depletion of certain individual glycolytic enzymes can lead to the death of cultured parasites. One such glycolytic enzyme, phosphofructokinase (PFK), catalyzes the formation of fructose-1,6-bisphosphate (F1,6BP) and ADP from fructose-6-phosphate (F6P) and ATP, and in many metabolic circumstances makes an important contribution to the control of flux through the glycolytic pathway. […]
Substrate buffer was dispensed into white, solid 1536-well plates at 3ul/well in 0.1M triethanolamine (TEA) buffer, pH 8.0, containing final concentrations of 5 mM MgCl2, 0.01% Tween20, 0.5 mM fructose-6-phosphate (F6P) and 0.1mM ATP. […] The plates were measured on a ViewLux plate reader for luminescent signal using a clear filter with a one second exposure. The %Activity was determined from the corrected luminescence values. […]
Note: nearly all actives have a fitted effect of over 60% in size.
Potency is the fitted concentration of half-maximal effect.

Structure (SMILES)	Potency
O=P(Nc1nccs1)(c1ccccc1)c1nc2ccccc2s1 (stereo unspecified)	active: 23.9 µM
